The structures appear in SMILES notation. The entries are a selection whose mix differs from that of the whole data set. Active and inactive are the calls of the source. No stated cut-off is given here; in the data, active means inhibition above about 30%; inconclusive means no clear call, values can overlap the other calls; inactive means below that.

The chains behind the UniProt entries cited, without tags or fusion partners.
UniProt P9WHJ3, whole entry: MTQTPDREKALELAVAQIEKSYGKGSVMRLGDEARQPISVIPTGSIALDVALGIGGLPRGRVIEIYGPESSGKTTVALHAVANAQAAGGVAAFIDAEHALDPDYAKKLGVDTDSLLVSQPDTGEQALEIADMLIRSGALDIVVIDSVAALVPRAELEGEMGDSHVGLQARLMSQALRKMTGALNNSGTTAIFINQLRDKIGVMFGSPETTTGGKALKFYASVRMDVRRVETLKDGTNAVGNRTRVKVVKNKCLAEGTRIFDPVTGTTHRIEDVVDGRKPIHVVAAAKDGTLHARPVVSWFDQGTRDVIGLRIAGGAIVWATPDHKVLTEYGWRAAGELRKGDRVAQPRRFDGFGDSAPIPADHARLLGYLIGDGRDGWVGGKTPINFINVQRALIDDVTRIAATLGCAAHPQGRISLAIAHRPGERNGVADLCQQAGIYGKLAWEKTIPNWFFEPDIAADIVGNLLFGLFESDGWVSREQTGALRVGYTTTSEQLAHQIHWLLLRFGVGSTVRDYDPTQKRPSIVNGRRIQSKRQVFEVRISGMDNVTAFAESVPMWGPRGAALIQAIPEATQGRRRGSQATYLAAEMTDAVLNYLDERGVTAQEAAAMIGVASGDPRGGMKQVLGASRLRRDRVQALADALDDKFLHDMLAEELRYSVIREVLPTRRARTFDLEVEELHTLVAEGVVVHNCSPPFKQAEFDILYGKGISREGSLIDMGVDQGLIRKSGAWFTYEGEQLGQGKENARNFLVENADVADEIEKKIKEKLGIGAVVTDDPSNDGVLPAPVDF

Consider 96 compounds from PubChem BioAssay AID2221 (Broad Institute, 2009).

The target of this assay is Protein RecA (Mycobacterium tuberculosis (strain ATCC 25618 / H37Rv)) (UniProt P9WHJ3). In words: Mtb RecA intein splicing inhibitors, primary screen, biochemical, fluorescence, HTS (AID 2221).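 Further: 0% = vehicle wells and 100% = reference inhibitor control wells.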 The conditions noted are these: cell-free RecA intein splicing, active compounds read high, concentration not given here.
Consider `Cc1ccc(NP(=O)(Oc2cccc(C)c2)Oc2cccc(C)c2)nc1`, for which the inhibition was inactive: 10.9%.
Take `c1ccc(-c2nn[nH]n2)c(-c2nn[nH]n2)c1`: the inhibition was inactive: -2.37%.
Consider `CP(=O)(Nc1ccccc1)Oc1ccc(F)cc1` (stereo unspecified), for which the inhibition is inactive: 0.344%.
In the case of `CN(C)C(=O)Oc1noc2ccccc12` it was inactive: -0.749%; in that of `CCCCCOc1ccc(NP(C)(=O)Oc2ccc(Cl)cc2Cl)cc1` (stereo unspecified), inactive: -2.58%.
In the case of `O=[N+]([O-])c1cc([N+](=O)[O-])c(OC2CCCCC2O)c([N+](=O)[O-])c1` (stereo unspecified) it was inactive: 7.9%.
Take `Cc1ccccc1OP(=O)(Nc1ccccn1)Oc1ccccc1C`: the inhibition is inactive: 12.4%.
The figure for `Cc1ccc(OP(=O)(Nc2ccccn2)Oc2ccc(C)cc2)cc1` is inactive: 2.74%; for `CC(=O)NC(SC(=S)N(CC(C)C)CC(C)C)C(Cl)(Cl)Cl` (stereo unspecified) it is inactive: -0.633%.
In the case of `COC(=O)c1cc2c(s1)N=C(c1ccccc1)N(C)P2(=O)N1CCOCC1` (stereo unspecified), the inhibition is inactive: 2.83%.
On to `CCC(=O)N1C2C3N(C(=O)CC)C1C1N(C(=O)CC)C(C(N1C(=O)CC)N3C(=O)CC)N2C(=O)CC`, for which the inhibition is inactive: -1.86%.
On to `CCN(CC)CCCOC(=O)C(O)(c1ccccc1)C1CCCCC1` (stereo unspecified), for which the inhibition was inactive: -0.532%.
In the case of `O=C(OC1CN2CCC1CC2)c1ccccc1` (stereo unspecified) it was inactive: -7.04%; in that of `C[C@H]1OP(=O)(Oc2ccccc2)[C@H](O)[C@H](O)[C@H]1N=[N+]=[N-]` (stereo partly specified), inactive: 2.27%; in that of `O=P(Nc1nc2ccccc2s1)(c1ccccc1)c1ccccc1`, inactive: 4.01%.
Consider `CN(C)CCOC(=O)C(O)(c1ccccc1)C1CCCCC1` (stereo unspecified), for which the inhibition is inactive: 0.816%.
Consider `COc1ccc(NP(C)(=O)Oc2ccccc2OC)cc1` (stereo unspecified), for which the inhibition is inactive: -0.267%.
The figure for `COc1ccc(OP(C)(=O)Nc2cccc(Br)c2)cc1` (stereo unspecified) is inactive: -3.83%; for `CN(C)C1(CNC(=O)c2ccc(Cl)c(S(N)(=O)=O)c2)CCCCC1` it is inactive: -0.301%.
`O=P(Nc1ccccn1)(c1ccc(Br)cc1)c1ccc(Br)cc1`: the inhibition is inactive: 2.2%.
`Nc1ccc([As](=O)(O)c2ccc([N+](=O)[O-])cc2)cc1`: the inhibition is inactive: 1.9%.
Take `C(Cc1nn[nH]n1)Cc1nn[nH]n1`: the inhibition is inactive: -1.71%.
In the case of `O=C(OC1CN2CCC1CC2)c1cccc(Cl)c1` (stereo unspecified), the inhibition is inactive: -3.92%.
In the case of `O=[N+]([O-])c1ncn(CCn2cnc([N+](=O)[O-])n2)n1` it was inactive: 0.37%.
The figure for `CC(=O)NC(SC(=S)N(C)C)C(Cl)(Cl)Cl` (stereo unspecified) is inactive: -2%.
With `O=[N+]([O-])c1ccc(OP2(=O)COCCO2)cc1` (stereo unspecified), the inhibition is inactive: -1.62%.
The figure for `O=[N+]([O-])c1ccc(O)c(/C=N/Nc2ccc([N+](=O)[O-])cc2[N+](=O)[O-])c1` is inactive: 8.6%; for `O=[N+]([O-])c1cc([N+](=O)[O-])c(NCC2CCS(=O)(=O)C2)c([N+](=O)[O-])c1` (stereo unspecified) it is active: 78.4%; for `Cc1cc(-c2cccc3ccccc23)c(C)cn1.O=[N+]([O-])c1cc([N+](=O)[O-])c(O)c([N+](=O)[O-])c1` it is inactive: 10.4%.
On to `O=[As](O)(c1ccccc1)c1ccc(O)cc1`, for which the inhibition is inactive: -0.485%.
In the case of `CCOP(C)(=S)SCC(=O)NC(C)(CC)C(=O)O` (stereo unspecified) it was inactive: 0.277%.
In the case of `c1nnnn1CCn1cnnn1` it was inactive: 2.58%; in that of `CP(=O)(Nc1ccc(SC(F)(F)F)cc1)Oc1ccc(F)cc1` (stereo unspecified), inactive: 9.35%; in that of `O=P(Nc1nccs1)(c1ccccc1)c1ccccc1`, inactive: 1.35%.
In the case of `CC(C)C(=O)NC(Sc1ccccc1)C(Cl)(Cl)Cl` (stereo unspecified) it was inactive: 1.79%; in that of `Cc1ccccc1NP(C)(=O)Nc1ccccc1C`, inactive: 1.37%.
For the compound `CP(=O)(Nc1ccc2c(c1)OCCO2)Oc1ccccc1` (stereo unspecified), the inhibition is inactive: -0.668%.
The figure for `O=C(OCCCN1CCCC1)C(O)(c1ccccc1)C1CCCCC1` (stereo unspecified) is inactive: 0.214%.
In the case of `COc1ccccc1OP(C)(=O)Nc1c(C)n(C)n(-c2ccccc2)c1=O` (stereo unspecified) it was inactive: -3.24%; in that of `CC(=O)N1C2C3N(C(C)=O)C1C1N(C(C)=O)C(C(N1C(C)=O)N3C(C)=O)N2C(C)=O`, inactive: 0.00159%; in that of `O=[N+]([O-])c1cc([N+](=O)[O-])c(CCNc2ccccc2)c([N+](=O)[O-])c1`, inactive: 0.829%.
In the case of `CCc1ccc(OP(C)(=O)Nc2cccnc2)cc1` (stereo unspecified) it was inactive: -0.65%; in that of `CP(=O)(Oc1ccccc1)N1CCOC1=O` (stereo unspecified), inactive: 5.24%.
Consider `Cc1ccc(NP(=O)(Oc2ccccc2)Oc2ccccc2)nc1`, for which the inhibition is inactive: -0.437%.
In the case of `COc1ccc(OP(C)(=O)Nc2ccc(Br)cc2)cc1` (stereo unspecified) it was inactive: -2.52%; in that of `COc1ccc(C2=NCC(CBr)S2)cc1` (stereo unspecified), inactive: 3.02%.
In the case of `CCN(CC)CC(O)COC(=O)C(O)(c1ccccc1)C1CCCCC1` (stereo unspecified) it was inactive: -2.29%.
The figure for `CN(C)C(=O)OCCc1n(C)cc[n+]1C` is inactive: 1.71%.
Consider `CC(C)=N/N=C(\N)N[N+](=O)[O-]`, for which the inhibition was inactive: -1.38%.
In the case of `CN(C)C(=O)c1c([N+](=O)[O-])cc([N+](=O)[O-])cc1[N+](=O)[O-]`, the inhibition was inactive: 9.6%.
Regarding `CC1CCN(C(=O)Oc2c(Cl)cc(Cl)c3cccnc23)CC1`, the inhibition is inactive: 8%.
The figure for `Nc1ccc([As](=O)(O)c2ccc(N)cc2)cc1` is inactive: -1.05%.
The figure for `CC(C)(C)c1ccc(OP(C)(=O)O)cc1` is inactive: 1.33%; for `COc1ccccc1OP(C)(=O)Nc1ccccc1Br` (stereo unspecified) it is inactive: -1.18%; for `CP(=O)(Nc1ccc(Cl)cc1)Oc1ccc(F)cc1` (stereo unspecified) it is inactive: 0.00846%.
The figure for `CCN(/C(=N/P(=O)(N1CCOCC1)N1CCOCC1)N1CCOCC1)c1ccc(OC)cc1` is inactive: 0.382%; for `O=C(Nc1cc([As](=O)(O)O)ccc1O)c1ccccc1` it is inactive: 2.5%; for `CCOC(=O)c1ccc(NP(C)(=O)Oc2ccc(Cl)cc2)cc1` (stereo unspecified) it is inactive: 2.77%.
In the case of `CP(=O)(OC12CC3CC(CC(C3)C1)C2)OC12CC3CC(CC(C3)C1)C2`, the inhibition is inactive: 8.51%.
The figure for `Nc1ccc2c(ccc3cccnc32)n1.O=[N+]([O-])c1cc([N+](=O)[O-])c(O)c([N+](=O)[O-])c1` is inactive: 6.02%; for `O=[N+]([O-])c1cccc(NC2=NCC(CBr)S2)c1` (stereo unspecified) it is inactive: 4.57%; for `O=C(O)CNc1ccc([As](=O)(O)O)cc1` it is inactive: 0.375%.
The figure for `CC(C)(C)C(=O)NC(Sc1ccncn1)C(Cl)(Cl)Cl` (stereo unspecified) is inactive: 3.09%.
The figure for `O=[N+]([O-])c1ncn(CCn2ncnc2[N+](=O)[O-])n1` is inactive: -1.67%; for `CN(C(=O)Cc1ccc(Cl)c(Cl)c1)[C@H]1CCCC[C@@H]1N1CCCC1` it is inactive: 1.56%; for `Cc1ccc(NP(=O)(Oc2ccccc2F)Oc2ccccc2F)nc1` it is inactive: 1.02%.
In the case of `COc1ccccc1OP(C)(=O)Nc1ccc(C)c(C)c1` (stereo unspecified), the inhibition was inactive: 0.98%.
In the case of `CCOP(=O)(Nc1ccccc1)OCC` it was inactive: -1.6%; in that of `Cc1cc(SC(NC(=O)c2ccc(F)cc2)C(Cl)(Cl)Cl)ncn1` (stereo unspecified), inactive: -1.14%.
For `COc1ccc(OP(C)(=O)Nc2ccccc2Br)cc1` (stereo unspecified), the inhibition was inactive: -1.19%.
The figure for `CC(=O)Nc1ccc([As](=O)(O)O)cc1` is inactive: 0.171%; for `Cc1cc(C)cc(OP(C)(=O)Nc2cccc(C(F)(F)F)c2)c1` (stereo unspecified) it is inactive: 0.305%; for `O=P(Nc1nc2ccc(Cl)cc2s1)(c1ccccc1)c1ccccc1` it is inactive: 12.8%.
In the case of `CCN(N=Nc1nonc1N)c1nonc1N` it was inactive: -3.06%; in that of `CP(=O)(OCCOc1ccccc1)OCCOc1ccccc1`, inactive: -5.16%.
As for `CP(=O)(Nc1ccc(Cl)cc1Cl)Oc1ccccc1` (stereo unspecified), the inhibition is inactive: 0.124%.
The figure for `Nc1cccc2ccc([As](=O)(O)O)cc12` is inactive: 14.1%; for `Cc1nc2ccc3ccccc3c2o1.O=[N+]([O-])c1cc([N+](=O)[O-])c(O)c([N+](=O)[O-])c1` it is active: 44.5%; for `Cc1ccc(OP(=O)(Nc2nccs2)Oc2ccc(C)cc2)cc1` it is inactive: 1.26%.
In the case of `COc1ccc(OP(C)(=O)Nc2ccccn2)cc1` (stereo unspecified), the inhibition is inactive: -3.61%.
The figure for `COc1ccccc1OP(=O)(Nc1ccc(C)cn1)Oc1ccccc1OC` is inactive: 0.219%.
In the case of `CN(C)CCOC(=O)C(O)(c1ccccc1)C1CCCC1` (stereo unspecified) it was inactive: 0.476%.
In the case of `Clc1ccc(Cl)c(NC2=NCC(CBr)S2)c1` (stereo unspecified) it was inactive: 11.1%.
With `CN1CCCC(OC(=O)C(c2ccccc2)c2ccccc2)C1` (stereo unspecified), the inhibition was inactive: -1.11%.
In the case of `NC(=O)c1cc([N+](=O)[O-])cc([N+](=O)[O-])c1N` it was inactive: 0.175%.
The figure for `Cc1ccc(N/C(=N/P(=O)(N2CCOCC2)N2CCOCC2)N2CCOCC2)cc1` is inactive: -2.21%; for `COc1ccccc1OP(C)(=O)Nc1ccc(Br)cc1` (stereo unspecified) it is inactive: 0.425%; for `COc1ccccc1OP(C)(=O)Nc1ccc(C)cc1C` (stereo unspecified) it is inactive: 1.92%.
In the case of `CP(=O)(Nc1ccccn1)Oc1ccccc1` (stereo unspecified) it was inactive: 1.47%; in that of `CCc1ccc(OP(C)(=O)O)cc1`, inactive: -3.89%.
With `O=[N+]([O-])c1cc([N+](=O)[O-])c(Nc2ccccn2)c([N+](=O)[O-])c1`, the inhibition was active: 72.8%.
The figure for `CC(C)CC(=O)NC(Sc1ccc(Cl)cc1)C(Cl)(Cl)Cl` (stereo unspecified) is inactive: 9.18%; for `Cc1c(NP(C)(=O)Oc2ccc(C(C)C)cc2)c(=O)n(-c2ccccc2)n1C` (stereo unspecified) it is inactive: -2.16%.
In the case of `Cc1c2non([O-])c-2c(C)[n+](=O)[n+]1[O-]` it was inactive: 19.1%; in that of `O=C(NC(Sc1ccncn1)C(Cl)(Cl)Cl)c1ccccc1` (stereo unspecified), inactive: -2.65%.
For `Oc1ccccc1CNc1ccccn1`, the inhibition is inactive: 0.8%.

One may read the inhibition as the change of the read-out against control, counted positive when it falls.
